Taken from: PubChem BioAssay AID1259414 (Drosophila RNAi Screening Center, 2018)
Test: 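Genome-wide screen for host control of endosymbiont load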 (primary screen). Cells: Drosophila JW18 cells infected with Wolbachia. Reagents: long dsRNA against Drosophila genes, 0.25 µg dsRNA per well of a 384-well plate. Timing: 5 days. Conditions: cells persistently infected with Wolbachia before knock-down; no added drug. Detection: 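Automated imaging of bacterial rRNA staining divided by host cell count, reported as plate-normalised robust z-score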. Direction: Wolbachia per cell robust z: higher = more Wolbachia per host cell than the plate typical. Hit rule: 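Active if absolute robust z reaches 1.5 in two or more of three replicates, leaving out multi- or no-target dsRNAs, genes unexpressed in JW18 and A1 wells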.
The deposit covers about 24,000 reagents; this is an unselected part of those that have a named target and a result. Over the whole deposit, about 1,210 (5%) are marked active. 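Inactive calls also include excluded dsRNAs with several or no targets, genes unexpressed in JW18, and well A1, regardless of score.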 A number with no mark means an inactive call.

| Target gene | amplicon | Wolbachia per cell robust z, rep 1 | Wolbachia per cell robust z, rep 2 | Wolbachia per cell robust z, rep 3 |
| --- | --- | --- | --- | --- |
| sfl | DRSC08828 | 1.73 | 0.609 | 0.566 |
| sfl | DRSC08830 | 0.656 | 1.14 | -0.97 |
| sfl | DRSC25916 | 0.782 | 0.00449 | -0.123 |
| CG3534 | DRSC15494 | 1.2 | 2.1 | 0.221 |
| CG3534 | DRSC26023 | 0.159 | -0.0105 | 0.464 |
| CG3534 | DRSC41613 | -0.0857 | 0.139 | 0.747 |
| Dtg | DRSC15998 | -1.97 | -0.188 | -0.487 |
| Dtg | DRSC26947 | -0.746 | 1.6 | 0.697 |
| Dip-B | DRSC16466 | 0.411 | 0.602 | 0.774 |
| Dip-B | DRSC25975 | -1.13 | -0.315 | 2.37 |
| RtcB | DRSC03280 | -0.27 | -0.17 | 0.267 |

4 of these entries in another layout:
{"Target gene":"Dtg","amplicon":"DRSC26947","Wolbachia per cell robust z, rep 1":-0.746,"Wolbachia per cell robust z, rep 2":1.6,"Wolbachia per cell robust z, rep 3":0.697}
{"Target gene":"Dip-B","amplicon":"DRSC16466","Wolbachia per cell robust z, rep 1":0.411,"Wolbachia per cell robust z, rep 2":0.602,"Wolbachia per cell robust z, rep 3":0.774}
{"Target gene":"Dip-B","amplicon":"DRSC25975","Wolbachia per cell robust z, rep 1":-1.13,"Wolbachia per cell robust z, rep 2":-0.315,"Wolbachia per cell robust z, rep 3":2.37}
{"Target gene":"RtcB","amplicon":"DRSC03280","Wolbachia per cell robust z, rep 1":-0.27,"Wolbachia per cell robust z, rep 2":-0.17,"Wolbachia per cell robust z, rep 3":0.267}

Further records follow:
| Target gene | amplicon | Wolbachia per cell robust z, rep 1 | Wolbachia per cell robust z, rep 2 | Wolbachia per cell robust z, rep 3 |
| --- | --- | --- | --- | --- |
| CG9986 | DRSC16586 | -0.958 | 0.565 | -6.62 |
| CG9986 | DRSC29323 | 0.0343 | -4.57 | -0.385 |
| Nhe2 | DRSC03172 | -1.02 | 0.398 | 0.207 |
| Nhe2 | DRSC03377 | 1.12 | 0.295 | -0.162 |
| CG11322 | DRSC02142 | -3.97 | -0.623 | -6.19 |
| CG11322 | DRSC24585 | 0.659 | 0.277 | 0.376 |
| CG11322 | DRSC39010 | -1.53 | 1.37 | -0.216 |
| CG3301 | DRSC15471 | -0.264 | -0.628 | 1.13 |
| meru | DRSC09400 | -1.21 | 0.000616 | -0.281 |
| meru | DRSC10215 | 0.544 | 0.379 | 0.192 |
| CG33920 | DRSC37813 | 0.715 | 0.201 | 1.35 |
| CG15210 | DRSC19656 | 0.719 | -1.88 | -0.52 |
| CG15210 | DRSC27768 | 0.668 | 0.115 | -0.784 |
| Cyp6a20 | DRSC07380 | 0.759 | -0.342 | -0.177 |
| px | DRSC23244 | 0.739 | 1.11 | -0.687 |
| px | DRSC25863 | -0.0609 | 0.936 | 0.0157 |
| CG13727 | DRSC10055 | -3.79 | -3.58 | -2.49 |
